Measured values from several laboratories, pooled; numbers as filed in NIAID ChemDB.

Shared fields: tests in culture; agent: Aspergillus clavatus; strain: MTCC 1323

Zone: diameter of growth inhibition. Rows are shuffled and stem from different studies. A number after MIC or MFC names an inhibition level or a share of isolates.

Cc1cccc(/C=C2/S/C(=N/NC(=O)c3sc(NC(=O)c4ccc(F)cc4)nc3C)N(c3ccccc3)C2=O)c1 ; read-out: MIC50 ; value: 250 µg/mL
Cc1ccc(-c2nc3ccccc3c(=O)n2-c2ccc(C(=O)NN3C(=O)/C(=C/c4cccc(O)c4)SC3c3ccc(F)cc3)cc2)cc1 ; read-out: MIC100 ; value: 500 µg/mL
CC(=O)Nc1ccc(OCC(=O)N2N=C(c3nc4ccccc4[nH]3)CC2c2cccc([N+](=O)[O-])c2)cc1 ; read-out: MIC100 ; value: 250 µg/mL
CC(C)N1CCN(c2nc(Nc3ccc(C#N)c(C(F)(F)F)c3)nc(Oc3cccc4cccnc34)n2)CC1 ; read by: agar diffusion / agar ; read-out: zone ; dose: 100 µg/disc ; value: 21 mm
Cc1ccc(-c2nc3ccccc3c(=O)n2-c2ccc(CONN)cc2)cc1 ; read-out: MIC100 ; value: 1000 µg/mL
CN1CCN(c2nc(Nc3ccc(C#N)c(C(F)(F)F)c3)nc(Oc3cccc4cccnc34)n2)CC1 ; read by: agar diffusion / agar ; read-out: zone ; dose: 100 µg/disc ; value: 18 mm
CC(=O)Nc1ccc(OCC(=O)N2N=C(c3nc4ccccc4[nH]3)CC2c2ccc(F)cc2)cc1 ; read-out: MIC100 ; value: 25 µg/mL
Cc1ccc(-c2nc3ccccc3c(=O)n2-c2ccc(C(=O)NN3C(=O)/C(=C/c4ccc(Cl)cc4)SC3c3ccc(F)cc3)cc2)cc1 ; read-out: MIC100 ; value: 1000 µg/mL
N#Cc1ccc(Nc2nc(Oc3cccc4cccnc34)nc(N3CCN(c4ccccc4)CC3)n2)cc1C(F)(F)F ; read by: agar diffusion / agar ; read-out: zone ; dose: 100 µg/disc ; value: 20 mm
COc1cccc(/C=C2/S/C(=N/NC(=O)c3sc(NC(=O)c4ccc(F)cc4)nc3C)N(c3ccccc3)C2=O)c1 ; read-out: MIC50 ; value: 100 µg/mL
CC(=O)Nc1ccc(OCC(=O)N2N=C(c3nc4ccccc4[nH]3)CC2c2ccc(C)cc2)cc1 ; read-out: MIC100 ; value: 500 µg/mL
Cc1ccc(-c2nc3ccccc3c(=O)n2-c2ccc(C(=O)NN3C(=O)/C(=C/c4ccccc4)SC3c3ccc(F)cc3)cc2)cc1 ; read-out: MIC100 ; value: 1000 µg/mL
O=C1CSC(N2N=C(c3ccc([N+](=O)[O-])cc3)CC2c2cc3ccccc3nc2Cl)=N1 ; read-out: MIC100 ; value: 12.5 µg/mL
Cc1nc(NC(=O)c2ccc(F)cc2)sc1C(=O)N/N=C1/S/C(=C/c2ccc(Cl)cc2)C(=O)N1c1ccccc1 ; read-out: MIC50 ; value: 500 µg/mL
Cc1ccc(-c2nc3ccccc3c(=O)n2-c2ccc(C(=O)NN3C(=O)/C(=C/c4c(Cl)cccc4Cl)SC3c3ccc(F)cc3)cc2)cc1 ; read-out: MIC100 ; value: 500 µg/mL
CC(=O)Nc1ccc(OCC(=O)N2N=C(c3nc4ccccc4[nH]3)CC2c2ccccc2F)cc1 ; read-out: MIC100 ; value: 12.5 µg/mL
O=C1CSC(N2N=C(c3cccc([N+](=O)[O-])c3)CC2c2cc3ccccc3nc2Cl)=N1 ; read-out: MIC100 ; value: 50 µg/mL
CC(=O)Nc1ccc(OCC(=O)N2N=C(c3nc4ccccc4[nH]3)CC2c2cccc(F)c2)cc1 ; read-out: MIC100 ; value: 100 µg/mL
Cc1ccc(-c2nc3ccccc3c(=O)n2-c2ccc(C(=O)NN3C(=O)/C(=C/c4ccccc4O)SC3c3ccc(F)cc3)cc2)cc1 ; read-out: MIC100 ; value: 1000 µg/mL
O=C1CSC(N2N=C(c3ccc(Cl)cc3)CC2c2cc3ccccc3nc2Cl)=N1 ; read-out: MIC100 ; value: 50 µg/mL
CC(=O)Nc1ccc(OCC(=O)N2N=C(c3nc4ccccc4[nH]3)CC2c2ccccc2C)cc1 ; read-out: MIC100 ; value: 250 µg/mL
N#Cc1ccc(Nc2nc(Oc3cccc4cccnc34)nc(N3CCOCC3)n2)cc1C(F)(F)F ; read by: agar diffusion / agar ; read-out: zone ; dose: 100 µg/disc ; value: 23 mm
Cc1nc(NC(=O)c2ccc(F)cc2)sc1C(=O)N/N=C1/S/C(=C/c2cccc(O)c2)C(=O)N1c1ccccc1 ; read-out: MIC50 ; value: 250 µg/mL
CC(=O)Nc1ccc(OCC(=O)N2N=C(c3nc4ccccc4[nH]3)CC2c2ccccc2O)cc1 ; read-out: MIC100 ; value: 250 µg/mL
O=C1CSC(N2N=C(c3ccccc3F)CC2c2cc3ccccc3nc2Cl)=N1 ; read-out: MIC100 ; value: 100 µg/mL

Repeating the final 2 entries:

CC(=O)Nc1ccc(OCC(=O)N2N=C(c3nc4ccccc4[nH]3)CC2c2ccccc2O)cc1 ; read-out: MIC100 ; value: 250 µg/mL
O=C1CSC(N2N=C(c3ccccc3F)CC2c2cc3ccccc3nc2Cl)=N1 ; read-out: MIC100 ; value: 100 µg/mL